Columns and labels:
[1] = Drug uptake in human skin fibroblast lysosomes assessed as fold change in corrected total cell fluorescence at 50 uM measured after 2 hrs by LysoTracker Red DND-99 dye based laser scanning confocal microscopy relative to control; assay type: ADME, subcellular, Lysosome
[2] = Selectivity index, ratio of CC50 for HEK293T cells to IC50 for antiviral activity against HIV-based lentiviral pseudotyped Marburgvirus harboring mucin domain deleted GP infected in HEK293T cells assessed as inhibition of viral entry; assay type: toxicity, cell-based; conditions: human
[3] = Selectivity index, ratio of CC50 for HEK293T cells to IC50 for antiviral activity against HIV-based lentiviral pseudotyped Ebolavirus harboring mucin domain deleted GP infected in HEK293T cells assessed as inhibition of viral entry; assay type: toxicity, cell-based; conditions: human

SMILES	fold change (FC) [1]	Ratio CC50/IC50 [2]	Ratio CC50/IC50 [3]
CN(C)CCOc1ccc(/C(=C(/CCCl)c2ccccc2)c2ccccc2)cc1 [TOREMIFENE]	0.27	24	85
CC1(C)[C@H]2CC[C@](C)(C2)[C@H]1OC(=O)CCN1CCOCC1		4	5
CC1CCN(CCCC(=O)O[C@H]2C(C)(C)[C@H]3CC[C@]2(C)C3)CC1		5	46
CCN1CCN(CC(=O)O[C@H]2C(C)(C)[C@H]3CC[C@]2(C)C3)CC1		30	99
CN1CCN(CC(=O)O[C@H]2C(C)(C)[C@H]3CC[C@]2(C)C3)CC1		23	32
CCN1CCN(CCCC(=O)O[C@H]2C(C)(C)[C@H]3CC[C@]2(C)C3)CC1		35	168
C[C@@H]1[C@H]2C[C@@H](C[C@H]1OC(=O)CN1CCN(C)CC1)C2(C)C		13	131
C[C@@H]1[C@H]2C[C@@H](C[C@H]1OC(=O)CCN1CCN(C)CC1)C2(C)C		22	65
CC1(C)[C@H]2CC[C@](C)(C2)[C@H]1OC(=O)CCCN1CCCCC1		35	241
CC1CCN(CC(=O)O[C@H]2C(C)(C)[C@H]3CC[C@]2(C)C3)CC1		12	12
CN1CCN(CCCC(=O)O[C@H]2C(C)(C)[C@H]3CC[C@]2(C)C3)CC1		> 38	> 250

Source: ChEMBL document CHEMBL5579834 (Eur J Med Chem, 2024)
